Measured values from several laboratories, pooled; numbers as filed in NIAID ChemDB.

Shared fields: tests in culture; agent: Candida albicans

MIC50, MIC90 and the like: level of inhibition, or share of isolates inhibited. Neighbouring rows are from separate reports. ECn: concentration that inhibits the pathogen or its effect by n%. An empty or dashed field is not shown.

smiles	measure	setting	method	strain	value
COc1ccc(OC)c(C2SCC(=O)N2c2ccccn2)c1	MIC	-	agar	NCIM 3102	40 µg/mL
Cc1[nH][nH]c(=O)c1N=Nc1ccc(C(=O)N/N=C/c2ccc(F)cc2)cc1	MIC	-	-	ATCC 2091	125 µg/mL
Cn1c(=O)c(-c2[nH][nH]c(=O)c2N=Nc2ccccc2Br)c(O)c2ccccc21	MIC	-	-	ATCC 10231	>100 µg/mL
CCOC(=O)N/N=C1/C=C2C[C@@H](O)CC[C@]2(C)C2CC[C@]3(C)[C@@H]([C@H](C)CCCC(C)C)CC[C@H]3C12	MIC	-	-	CIP 1180-79	12.5 µg/mL
NC(=NC1CCCC1)c1ccc(-c2ccc(-c3ccc(C(N)=NC4CCCC4)cc3)o2)cc1	MFC	-	-	Isolate CA2601 fluconazole-resistant	50 µg/mL
NS(=O)(=O)c1ccc(N2C(=O)CSC2c2ccccc2Cl)cc1	MIC	-	agar	NCIM 3102	19 µg/mL
Fc1ccc2[nH+]c3c4ccccc4n(CCCCCC4CCCCC4)c3cc2c1	EC50	-	-	ATCC 90028	>50 µg/mL
CC1=C(C)C(=O)C(Cl)=C(Cl)C1=O	MIC	-	-	Berkout KCCM 50235	50 µg/mL
CC(C)CCC[C@@H](C)[C@H]1CC[C@H]2C3C/C(=N\N)[C@H]4C[C@@H](O)CC[C@]4(C)C3CC[C@]12C	MIC	-	-	CIP 1180-79	25 µg/mL
COc1ccccc1/C=c1\c(=O)[nH][nH]\c1=C1/C(=O)c2ccccc2N(C)C1=O	MIC	-	-	ATCC 10231	>100 µg/mL
Fc1ccc(NCSc2nnc(C34CC5CC(CC(C5)C3)C4)o2)cc1	MIC	-	-	ATCC 753	400 µg/mL
O=C1CSC(c2c(Cl)cccc2Cl)N1CCc1ccccc1	MIC	-	agar	NCIM 3102	25 µg/mL
CC(C)CCC[C@@H](C)[C@H]1CC[C@H]2C3C(CC[C@]12C)[C@@]1(C)CC/C(=N\N)C[C@@H]1C[C@@H]3O	MIC	-	-	CIP 1180-79	25 µg/mL
COC(=O)C(C#N)C1C(=O)C(C)=C(C)C(=O)C1Sc1ccccc1	MIC	-	-	Berkout KCCM 50235	50 µg/mL
OB1OCc2ccc3ccccc3c21	MIC	-	-	-	32 µg/mL
CC(C)CCC[C@@H](C)[C@H]1CC[C@H]2C3/C(=N/N)CC4=C/C(=N/N)CC[C@]4(C)C3CC[C@]12C	MIC	-	-	CIP 1180-79	>50 µg/mL
CCn1c(-c2ccc(N=Nc3c(C)[nH]n(-c4ccccc4)c3=O)cc2)n[nH]c1=S	MIC	-	-	ATCC 2091	125 µg/mL
Fc1ccc(F)c(NCSc2nnc(C34CC5CC(CC(C5)C3)C4)o2)c1	MIC	-	-	ATCC 753	400 µg/mL
CCN1CCC(O)(/C=C/c2ccc(Cl)c(Cl)c2)C(C(=O)/C=C/c2ccc(Cl)c(Cl)c2)C1	Mean MIC	-	-	10 strains	25 µM
CO[C@H]1C[C@@H]2CC[C@@H](C)[C@@](O)(O2)C(=O)C(=O)N2CCCC[C@H]2C(=O)O[C@H]([C@H](C)C[C@@H]2CC[C@H](c3nn[nH]n3)[C@H](OC)C2)CC(=O)[C@H](C)/C=C(\C)[C@@H](O)[C@@H](OC)C(=O)[C@H](C)C[C@H](C)CCCC/C=C/1C	MIC	-	-	579A	>100 µg/mL
Cn1c(=O)c(-c2[nH][nH]c(=O)c2C=Nc2ccncc2)c(O)c2ccccc21	MIC	-	-	ATCC 10231	25 µg/mL
Cn1c2ccccc2c2c1cc1cc(Br)ccc1[n+]2C	EC50	-	-	ATCC 90028	3.1 µg/mL
Cc1cc(NC(=O)c2cccc(NC(=O)COc3ccc(Cl)cc3)c2)no1	MIC	-	-	ATCC 10231	>100 µg/mL
S=c1[nH]nc(C23CC4CC(CC(C4)C2)C3)o1	MIC	-	-	ATCC 753	100 µg/mL
Cc1[nH][nH]c(=O)c1N=Nc1ccc(-c2n[nH]c(=S)o2)cc1	MIC	-	-	ATCC 2091	62.5 µg/mL
Cc1cc(NC(=O)c2ccc(NC(=O)COc3cccc(Cl)c3Cl)cc2)no1	MIC	-	-	ATCC 10231	>100 µg/mL
CO[C@@H]1C[C@H](C[C@@H](C)[C@@H]2CC(=O)[C@H](C)/C=C(\C)[C@@H](O)[C@@H](OC)C(=O)[C@H](C)C[C@H](C)/C=C/C=C/C=C(\C)[C@@H](N(OC)C(=O)N(C)C)C[C@@H]3CC[C@@H](C)[C@@](O)(O3)C(=O)C(=O)N3CCCC[C@H]3C(=O)O2)CC[C@H]1C(=O)ON(C)O	MIC	-	-	579A	50 µg/mL
Cn1c(=O)c(-c2[nH][nH]c(=O)c2N=Nc2cccc(Cl)c2)c(O)c2ccccc21	MIC	-	-	ATCC 10231	>100 µg/mL
CCCCCCCCCCCCCCCC(=O)NC1CC(O)C(O)NC(=O)C2C(O)C(C)CN2C(=O)C(C(O)CC(N)=O)NC(=O)C(C(O)Cc2ccc(O)c(OS(=O)(=O)O)c2)NC(=O)C2CC(O)CN2C(=O)C(C(C)O)NC1=O	MIC50	-	-	FP578	0.008 µg/mL
CO[C@@H]1C[C@H](C[C@@H](C)[C@@H]2CC(=O)[C@H](C)/C=C(\C)[C@@H](O)[C@@H](OC)C(=O)[C@H](C)C[C@H](C)/C=C/C=C/C=C(\C)[C@H](N(O)C(=O)N(C)C)C[C@@H]3CC[C@@H](C)[C@@](O)(O3)C(=O)C(=O)N3CCCC[C@H]3C(=O)O2)CC[C@H]1C(=O)ON(C)O	MIC	-	-	38247	100 µg/mL
S=c1oc(C23CC4CC(CC(C4)C2)C3)nn1CN1CCN(Cc2ccccc2)CC1	MIC	-	-	ATCC 753	>400 µg/mL
Cc1cc(=O)n(-c2ccc(N=Cc3c(-c4c(O)c5ccccc5n(C)c4=O)[nH][nH]c3=O)cc2)n1C	MIC	-	-	ATCC 10231	>100 µg/mL
Cc1[nH]n(-c2ccccc2)c(=O)c1N=Nc1ccc(-c2n[nH]c(=O)n2-c2ccccc2)cc1	MIC	-	-	ATCC 2091	600 µg/mL
Cn1c2ccccc2c2c1cc1ccccc1[n+]2C	EC50	-	-	ATCC 90028	3.1 µg/mL
CCN1CCC(O)(/C=C/c2ccc(C)cc2)C(C(=O)/C=C/c2ccc(C)cc2)C1	Mean MIC	-	-	10 strains	90.9 µM
COc1ccc(/C=c2\c(=O)[nH][nH]\c2=C2/C(=O)c3ccccc3N(C)C2=O)cc1	MIC	-	-	ATCC 10231	>100 µg/mL
CCn1c(-c2ccc(N=Nc3c(C)[nH]n(CCO)c3=O)cc2)n[nH]c1=S	MIC	-	-	ATCC 2091	125 µg/mL
Cc1ccc(S(=O)(=O)N/N=C2\CC[C@@]3(C)C(=C/C(=N/NS(=O)(=O)c4ccc(C)cc4)C4C3CC[C@]3(C)[C@@H]([C@H](C)CCCC(C)C)CC[C@@H]43)C2)cc1	MIC	-	-	CIP 1180-79	>50 µg/mL
C=CC(C)(C)C1(C)OC=CC1(C)CC(=O)C(O)C(OC)C(C)O	MIC	-	-	-	>200 µg/mL
Cc1ccc(S(=O)(=O)N/N=C2\CC3C(CC[C@]4(C)[C@@H]([C@H](C)CCCC(C)C)CC[C@@H]34)[C@@]3(C)CC[C@H](O)CC23)cc1	MIC	-	-	CIP 1180-79	25 µg/mL
COC(=O)C(C#N)C1C(=O)C(C)=C(C)C(=O)C1Sc1cccc(F)c1	MIC	-	-	Berkout KCCM 50235	50 µg/mL
Cn1c(=O)c(-c2[nH][nH]c(=O)c2N=Nc2ccc(Cl)cc2)c(O)c2ccccc21	MIC	-	-	ATCC 10231	>100 µg/mL
Cc1[nH]n(-c2ccccc2)c(=O)c1N=Nc1ccc(-c2n[nH]c(=S)n2-c2ccccc2)cc1	MIC	-	-	ATCC 2091	62.5 µg/mL
FC(F)(F)c1ccccc1NCSc1nnc(C23CC4CC(CC(C4)C2)C3)o1	MIC	-	-	ATCC 753	200 µg/mL
Cc1ccc(OCC(=O)Nc2cccc(C(=O)Nc3cc(C)on3)c2)cc1	MIC	-	-	ATCC 10231	>100 µg/mL
CCCCCCCCCCCC[n+]1cccc2ccccc21	MIC	24 h	broth dilution	ATCC 44859	0.01562 µg/mL
COc1cccc(OC)c1C1SCC(=O)N1c1ncccc1C	MIC	-	agar	NCIM 3102	17 µg/mL
CCN1CCN(Cn2nc(C34CC5CC(CC(C5)C3)C4)oc2=S)CC1	MIC	-	-	ATCC 753	200 µg/mL
Cn1c2ccccc2c2nc3ccccc3cc21	EC50	-	-	ATCC 90028	125 µg/mL

6 of the rows above, restated:

Cc1ccc(S(=O)(=O)N/N=C2\CC3C(CC[C@]4(C)[C@@H]([C@H](C)CCCC(C)C)CC[C@@H]34)[C@@]3(C)CC[C@H](O)CC23)cc1 ; measure: MIC ; strain: CIP 1180-79 ; value: 25 µg/mL
Cc1[nH][nH]c(=O)c1N=Nc1ccc(-c2n[nH]c(=S)o2)cc1 ; measure: MIC ; strain: ATCC 2091 ; value: 62.5 µg/mL
Cc1ccc(S(=O)(=O)N/N=C2\CC[C@@]3(C)C(=C/C(=N/NS(=O)(=O)c4ccc(C)cc4)C4C3CC[C@]3(C)[C@@H]([C@H](C)CCCC(C)C)CC[C@@H]43)C2)cc1 ; measure: MIC ; strain: CIP 1180-79 ; value: >50 µg/mL
Cc1cc(=O)n(-c2ccc(N=Cc3c(-c4c(O)c5ccccc5n(C)c4=O)[nH][nH]c3=O)cc2)n1C ; measure: MIC ; strain: ATCC 10231 ; value: >100 µg/mL
Cn1c(=O)c(-c2[nH][nH]c(=O)c2N=Nc2ccc(Cl)cc2)c(O)c2ccccc21 ; measure: MIC ; strain: ATCC 10231 ; value: >100 µg/mL
Cc1[nH]n(-c2ccccc2)c(=O)c1N=Nc1ccc(-c2n[nH]c(=O)n2-c2ccccc2)cc1 ; measure: MIC ; strain: ATCC 2091 ; value: 600 µg/mL